From patent publication US10420831B2, “Inactivation of viruses by delipidation” (priority 2016, dated 2019)

Tests used:
[1] = system: human influenza virus H1N1 A/WSN/33 strain; details: for Cholesterol / Cholesterol, percentage compared to the mock treatment: IFV
[2] = system: human influenza virus H1N1 A/WSN/33 strain; details: IFV, 50 mM MBCD
PRRSV-RESP strain = assay: Cholesterol content of treated PRRSV (Amplex Red cholesterol assay); details: 60 minutes at 37° C.
[3] = 10% DIPE, end-over-end rotation at 37° C. for 30 minutes

## CC(C)OC(C)C [DIPE, diisopropyl ether]
[1]; 10% DIPE, 30 minute treatment
  cholesterol removed from IFV: about 80%
[1]; 12% DIPE, 37° C., 30 minutes
  cholesterol removed from IFV: about 80%
  Cholesterol: 1.81 µg/mL
  Cholesterol, percentage compared to the mock treatment: (21.9%) ^a
[1]; 2% DIPE, 37° C., 30 minutes
  Cholesterol: 6.61 µg/mL
  Cholesterol, percentage compared to the mock treatment: (80.0%) ^a
[1]; 4% DIPE, 37° C., 30 minutes
  Cholesterol: 4.88 µg/mL
  Cholesterol, percentage compared to the mock treatment: (59.1%) ^a
[1]; 8% DIPE, 37° C., 30 minutes
  Cholesterol: 3.47 µg/mL
  Cholesterol, percentage compared to the mock treatment: (42.0%) ^a
[1]; [3]
  Cholesterol: 1.32 µg/mL
  Cholesterol, percentage compared to the mock treatment: (21.4%) ^c

## methyl β-cyclodextrin [MBCD]
[2]; 37° C., 30 minutes
  Protein: 0.33 mg/mL
[2]; 45 minutes
  protein content reduction: 6%
[2]; end-over-end rotation at 37° C. for 45 minutes
  Protein: 0.39 mg/mL
[1]; 50 mM MBCD, 37° C., 30 minutes
  Cholesterol: 0.14 µg/mL
[1]; 50 mM MBCD, end-over-end rotation at 37° C. for 45 minutes
  Cholesterol: 0.15 µg/mL
PRRSV-RESP strain; 5 mM MBCD
  Cholesterol Content: 9.82 µg/mL
  Cholesterol Content, percentage compared to the mock treatment: 84%
PRRSV-RESP strain; 10 mM MBCD
  Cholesterol Content: 4.66 µg/mL
  Cholesterol Content, percentage compared to the mock treatment: 40%
PRRSV-RESP strain; 20 mM MBCD
  Cholesterol Content: 4.46 µg/mL
  Cholesterol Content, percentage compared to the mock treatment: 38%
PRRSV-RESP strain; 30 mM MBCD
  Cholesterol Content: 4.00 µg/mL
  Cholesterol Content, percentage compared to the mock treatment: 34%
PRRSV-RESP strain; 50 mM MBCD
  Cholesterol Content: 3.29 µg/mL

Where two headings read alike, the source gives them in different places. Marks after values point to notes of the source that are not given here.
